Parameters: species or system patients
Conditions: in vivo

## CCOC(=O)C1=C[C@@H](OC(CC)CC)[C@H](NC(C)=O)[C@@H](N)C1 [oseltamivir]
  Symptom resolution in patients with emerging resistant virus: ≤ 6 days

Reference: publication PMC5820429 (Influenza and Other Respiratory Viruses, 2018)
